According to patent publication US4954637A, “Certain maleimide-N-alkylenecarboxylate-ortho-nitrobenzenesulfonic acid esters and derivatives useful for coupling biological materials” (Cetus Corporation, priority 1987, dated 1990):

Test system: streptavidin
Design: species or system Streptomyces avidinii
Conditions: 20 minutes
Protocol: A total of 0.26 mg (4.3×10^-3 μmoles) of streptavidin purified from Streptomyces avidinii by the method of Hoffman et al., PNAS. 77, 4666-4668 (1980) was dissolved in 1.0 ml of phosphate buffered saline at pH 7.4 to yield a total amine concentration of 6.93×10^-5 M (16NH2 /streptavidin). […] Good separation was achieved between the protein and the excess HNSA and unreacted HNSA ester. […] In this case 79% of the amino groups on streptavidin (12.9 out of 16.0) reacted.

**Q.** Which results are given for O=C(CCCCCN1C(=O)C=CC1=O)Oc1ccc(S(=O)(=O)O)cc1[N+](=O)[O-] [mal-sac-HNSA, N-maleimido-6-aminocaproylHNSA]?
**A.** amino groups on streptavidin reacted (out of 16.0): 12.9; percent of the amino groups on streptavidin reacted: 79%
